For at least one entry, the source does not settle the construct or the ends of the probe. For part of these data: At least one verdict was read from the data and is not stated in words by the source. For part of these data: Protein sequences can lack the tags named with them.

One data set has as its system MutY DNA glycosylase. Kind of data set: EMSA. Particulars: 5 mM Mg2+; EMSA: 50 mM MOPS pH 7.5, 1 mM EDTA, 1 mM DTT, 5 mM MgCl2, 5% glycerol, 200 ng protein in 10 ul, 20 min room temperature; 6% PAGE; recombinant …; protein details: His; label: 5' 32P. In general terms: Mobility shift assays separate free from complexed probe on a gel.
Data set [1] deals with T1, PilQ complex (native secretin) (Neisseria meningitidis M1080) (UniProt Q9JVW4).
T1 sequence (looked up, limits assumed): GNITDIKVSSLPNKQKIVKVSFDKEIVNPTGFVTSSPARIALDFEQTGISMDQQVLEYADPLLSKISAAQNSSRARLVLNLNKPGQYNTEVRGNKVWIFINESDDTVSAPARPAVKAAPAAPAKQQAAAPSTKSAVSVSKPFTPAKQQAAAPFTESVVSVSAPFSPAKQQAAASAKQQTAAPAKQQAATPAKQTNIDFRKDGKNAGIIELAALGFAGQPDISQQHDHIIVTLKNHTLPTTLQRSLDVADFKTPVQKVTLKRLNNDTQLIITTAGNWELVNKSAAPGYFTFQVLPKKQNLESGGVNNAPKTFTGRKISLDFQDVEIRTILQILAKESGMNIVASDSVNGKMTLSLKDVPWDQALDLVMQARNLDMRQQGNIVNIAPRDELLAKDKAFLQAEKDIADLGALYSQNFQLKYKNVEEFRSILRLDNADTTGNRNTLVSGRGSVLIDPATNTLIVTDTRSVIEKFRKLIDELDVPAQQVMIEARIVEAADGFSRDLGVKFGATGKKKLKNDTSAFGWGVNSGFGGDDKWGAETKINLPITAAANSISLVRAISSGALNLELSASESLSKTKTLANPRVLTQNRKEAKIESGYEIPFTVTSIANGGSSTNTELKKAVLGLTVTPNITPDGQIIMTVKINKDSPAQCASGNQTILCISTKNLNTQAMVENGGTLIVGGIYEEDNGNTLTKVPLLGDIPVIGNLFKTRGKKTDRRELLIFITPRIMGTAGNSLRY
The data set can be described thus: EMSA. Particulars: 5 mM Mg2+; EMSA: 50 mM MOPS pH 7.5, 1 mM EDTA, 1 mM DTT, 5 mM MgCl2, 5% glycerol, 200 ng protein in 10 ul, 20 min room temperature; 6% PAGE; native protein; label: 5' 32P; single-stranded DNA.

Data set [2] addresses T1, PilQ complex (native secretin) (Neisseria meningitidis M1080). The data set can be described thus: electron microscopy (nanogold). The following applies: native protein, label: 5' biotin, streptavidin-5 nm gold.

On to “CCGCCGCCTGCCGTCTGAAAGATATTCAGACGGCATCGGC (double strand) [T7+T8 hybrid]”, for which, in the data set with MutY DNA glycosylase, the binding result is “binds”.
Take “CCGCCGCCTGCCGTCTGAAAGATATTCAGACGGCATCGGC [T7]”: in data set [1], the binding result is given as “binds”.
As to “GCCGTCTGAA [DUS 10-mer, single-stranded]”, the binding result in data set [2] (single-stranded DNA) is “binds”.
As to “CAACAACAACAACAGGCCTGTCATCCAAAATGACAGGCCAACAACAACAACA (double strand) [T3+T4 hybrid]”, the binding result with MutY DNA glycosylase is on record as “binds”.
The same measure, in the same setting: as for “CAACAACAACAACAGCCGTCTGAACCAAATTCAGACGGCAACAACAACAACA (double strand) [T1+T2 hybrid]”, the entry is “binds”.
Consider “GCCGTCTGAA (double strand) [DUS 10-mer duplex]”, for which the binding result in data set [2] is listed as “binds”.

These data come from paper PMC2884949, “The outer membrane secretin PilQ from Neisseria meningitidis binds DNA”.
